A mixed list of measured activities; the numbers were collected in NIAID ChemDB.

Common to all: growth or infection tests; species: Candida parapsilosis; read-out: MIC

Conditions beyond the fields shown may differ between rows. Blank or dashed fields: not listed here.

structure	strain	method	conditions	result
OC(CCn1ccnc1)c1ccc(-c2ccccc2)cc1	RTCC 1018	broth dilution		>64 µg/mL
Nc1[nH]c(=O)ncc1F	NBRC 1396	broth dilution	48 h	0.125 µg/mL
CC(C)S(=O)(=O)Nc1ccc(CN(C)CC(O)(Cn2cncn2)c2ccc(F)cc2F)cc1	CAPA1	resazurin		4.5 µg/mL
OC(CCn1ccnc1)c1ccc(Br)cc1	RTCC 1079	broth dilution		>64 µg/mL
C[C@H]1[C@H](O)[C@@H](C)/C=C/C=C/C=C/C=C/C=C/C=C/C=C/[C@H](O[C@@H]2O[C@H](C)[C@@H](O)[C@H](N)[C@@H]2O)C[C@@H]2O[C@](O)(C[C@@H](O)C[C@@H](O)CC[C@H](O)[C@@H](O)C[C@@H](O)CC(=O)O[C@H]1C)C[C@H](O)[C@H]2C(=O)O	CCC 124-2000	broth dilution / turbidity		0.98 µg/mL
Nn1c(SCC(O)(Cn2cncn2)c2ccc(F)cc2F)nnc1-c1ccc(F)cc1	ATCC 22019	broth dilution		>64 µg/mL
O=C(CCn1ccnc1)c1ccc(Cl)cc1	RTCC 1079	broth dilution		>64 µg/mL
CCOc1ccc2nc3cc(N=C4NC(=O)/C(=C\c5ccc([N+](=O)[O-])cc5)S4)ccc3c(N)c2c1		broth dilution		750 µg/mL
O=C(CCn1ccnc1)c1ccc2ccccc2c1	RTCC 1079	broth dilution		>64 µg/mL
CCC(C)n1ncn(-c2ccc(N3CCN(c4ccc(OC[C@H]5CO[C@](Cn6cncn6)(c6ccc(Cl)cc6Cl)O5)cc4)CC3)cc2)c1=O	ATCC 22019	broth dilution		0.0625 µg/mL
Cc1ccccc1N1C(=O)CC(C)C1=O	CCC 124-2000	broth dilution / turbidity		250 µg/mL
CC(C)(O)c1cn(-c2ccc(Cl)cc2)nn1	URM 3624	broth dilution		64 µg/mL
C[C@@H](c1ncncc1F)[C@](O)(Cn1cncn1)c1ccc(F)cc1F	ATCC 22019	broth dilution		0.0312 µg/mL
Cc1ccccc1N1C(=O)C[C@@H](C)C1=O	CCC 124-2000	broth dilution / turbidity		125 µg/mL
CC(C)c1ccc(S(=O)(=O)Nc2ccc(CN(C)CC(O)(Cn3cncn3)c3ccc(F)cc3F)cc2)cc1	CAPA2	resazurin		0.18 µg/mL
Nn1c(SCC(O)(Cn2cncn2)c2ccc(Cl)cc2Cl)nnc1-c1ccc(Cl)cc1	ATCC 22019	broth dilution		>64 µg/mL
CCCCCCCCCCCCCCCC(=O)NC(CCCCN)C(=O)NC(CCCCN)C(N)=O	4882	broth dilution		0.5 µg/mL
Cc1ccc(C(O)c2cccc(C(=O)CCn3ccnc3)c2)cc1	RTCC 1018	broth dilution		>64 µg/mL
Nn1c(SCC(O)(Cn2cncn2)c2ccc(F)cc2F)nnc1-c1ccc(Cl)cc1	ATCC 22019	broth dilution		>64 µg/mL
CN(Cc1ccc(S(=O)(=O)NC(C)(C)C)cc1)CC(O)(Cn1cncn1)c1ccc(F)cc1F	CAPA1	resazurin		0.038 µg/mL
Nn1c(SCC(O)(Cn2cncn2)c2ccc(Cl)cc2Cl)nnc1-c1ccccc1	ATCC 22019	broth dilution		>64 µg/mL
O=C(CCn1ccnc1)c1cccc(C(O)c2ccc(Cl)c(Cl)c2)c1	RTCC 1018	broth dilution		32 µg/mL
CC1CC(=O)N(CCCc2ccccc2)C1=O	CCC 124-2000	broth dilution / turbidity		125 µg/mL
CN(Cc1ccc(S(=O)(=O)Nc2ccc([N+](=O)[O-])cc2)cc1)CC(O)(Cn1cncn1)c1ccc(F)cc1F	CAPA1	resazurin		0.017 µg/mL
O=C1C2=C(OC(CI)C2)C(=O)c2ccccc21	Clinical isolate	broth dilution		16 µg/mL
O=C(CCn1ccnc1)c1cccc(C(O)c2ccc(Cl)cc2)c1	RTCC 1018	broth dilution		32 µg/mL
COc1ccc(-c2cc(=O)c3c(O)c([C@@H]4O[C@H](CO)[C@@H](O)[C@H](O)[C@H]4O)c(O)cc3o2)cc1O	ATCC 22019	broth dilution		>500 µg/mL
C[C@@H]1C(=O)N(Cc2ccccc2)C(=O)[C@@H]1C	CCC 124-2000	broth dilution / turbidity		62.5 µg/mL
CC(C)NS(=O)(=O)c1ccc(CN(C)CC(O)(Cn2cncn2)c2ccc(F)cc2F)cc1	CAPA1	resazurin		0.58 µg/mL

Repeating the final 3 entries:

structure,strain,method,conditions,result
COc1ccc(-c2cc(=O)c3c(O)c([C@@H]4O[C@H](CO)[C@@H](O)[C@H](O)[C@H]4O)c(O)cc3o2)cc1O,ATCC 22019,broth dilution,,>500 µg/mL
C[C@@H]1C(=O)N(Cc2ccccc2)C(=O)[C@@H]1C,CCC 124-2000,broth dilution / turbidity,,62.5 µg/mL
CC(C)NS(=O)(=O)c1ccc(CN(C)CC(O)(Cn2cncn2)c2ccc(F)cc2F)cc1,CAPA1,resazurin,,0.58 µg/mL